A mixed list of measured activities; the numbers were collected in NIAID ChemDB.

Common to all: tests in culture; agent: Cryptococcus neoformans; endpoint: MFC

Neighbouring rows are from separate reports.

N=C(N)c1ccc(OCCCC(O)COc2ccc(C(=N)N)cc2)cc1 ; strain: 114.96 ; value: 3.12 µg/mL
Clc1ccccc1CN(Cc1ccc(-c2ccccc2)cc1)n1ccnc1 ; value: 33 µM
c1cc2nc(CCCCc3nc4ccc(C5=NCCN5)cc4[nH]3)[nH]c2cc1C1=NCCN1 ; strain: H99 ; value: >100 µg/mL
Clc1ccc(CN(Cc2ccc(-c3ccccc3)cc2)n2ccnc2)cc1 ; value: 200 µM
Cc1cc(-c2cc(C)on2)n(CCO)n1 ; value: >200 µM
Fc1ccc(CC(Cc2ccc(-c3ccccc3)cc2)n2ccnc2)cc1 ; value: 33 µM
COC1CC2CCC(C)C(O)(O2)C(O)C(O)N2CCCCC2C(=O)OC(C(C)CC2CCC(O)C(OC)C2)CC(=O)C(C)/C=C(\C)C(O)C(OC)C(=O)C(C)CC(C)/C=C/C=C/C=C/1C ; strain: TOR1-1 ; value: >100 µg/mL
NCCNC(=O)C1=Nc2ccc(NC(=O)C3=Nc4ccc(C(=O)Nc5ccc6[nH]c(C(=O)NCCN)cc6c5)cc4C3)cc2C1 ; strain: Serotype D ; value: 8 µg/mL
Clc1ccccc1CC(Cc1ccc(-c2ccccc2)cc1)n1ccnc1 ; value: 33 µM
CCCn1nc(C)c(N=O)c1-c1cc(C)on1 ; value: 0.8 µM
COc1cc(NC(C)CCCN)c2nc(C(C)(C)C)cc(C)c2c1Oc1cccc(C(F)(F)F)c1 ; value: 5 µg/mL
Clc1ccc(CN(Cc2ccc(-c3ccccc3)cc2)n2ccnc2)c(Cl)c1 ; value: 7.4 µM
CCn1nc(-c2cc(C)on2)c(N=O)c1C ; value: 3.1 µM
COC1CC2CCC(C)C(O)(O2)C(=O)C(=O)N2CCCCC2C(=O)OC(C(C)CC2CCC(O)C(OC)C2)CC(=O)C(C)/C=C(\C)C(O)[C@@](OC)(N(O)C(=O)OCC(C)C)C(=O)C(C)CC(C)/C=C/C=C/C=C/1C ; strain: TOR1-1 ; value: >100 µg/mL
Fc1ccccc1CN(Cc1ccc(-c2ccccc2)cc1)n1ccnc1 ; value: 33 µM
CCn1nc(C)c([N+](=O)[O-])c1-c1cc(C)on1 ; value: >200 µM
N=C(N)c1ccc(NCCCNc2ccc(C(=N)N)cc2[N+](=O)[O-])c([N+](=O)[O-])c1 ; strain: 114.95 ; value: 12.5 µg/mL
C[C@@H](n1cnc2cc(Cl)ccc2c1=O)[C@](O)(Cn1cncn1)c1ccc(F)cc1F ; strain: Isolate 109.97 ; value: 1.25 µg/mL
Fc1ccc(CC(Cc2ccc(-c3ccccc3)cc2)n2ccnc2)c(F)c1 ; value: 33 µM
Fc1ccc(CN(Cc2ccc(-c3ccccc3)cc2)n2ccnc2)cc1 ; value: 200 µM
Fc1ccccc1CC(Cc1ccc(-c2ccccc2)cc1)n1ccnc1 ; value: 33 µM
N=C(N)c1ccc2nc(-c3ccc(-c4nc5ccc(C(=N)N)cc5[nH]4)[nH]3)[nH]c2c1 ; strain: H99 ; value: 0.78 µg/mL
Cc1cc(-c2c(N=O)c(C)nn2C)no1 ; value: 1.6 µM
C[C@@H](n1ncn(-c2ccc(OCC(F)(F)C(F)F)cc2)c1=O)[C@](O)(Cn1cncn1)c1ccc(F)cc1F ; strain: DUMC 123.96 ; value: >16 µg/mL